Source: patent publication US20060292076A1, “Antimicrobial mediated ozone generation” (priority 2002, published 2006)
“Also recorded” adds a separate entry of the source.

Columns and labels:
[1] = Oxygen isotope experiments (^16O/^18O in H2O2 by TCEP reduction and MS); assay type: biochemical; settings: photo-oxidation in H2^18O
[2] = Oxidation of indigo carmine 1 and ^18O incorporation into cyclic α-ketoamide 2 by different reactive oxygen species

Question: With `Cc1c[nH]c2ccccc12` [3-methylindole] as the compound, how does the “^18O incorporation into the H2O2” value [1] read?
Answer: negligible; also recorded: does not include oxygen incorporation

Question: Which “cleavage of the double bond of 1 to yield isatin sulfonic acid 2” value ([2]; NaOCl 2 mM, 1 100 μM, PBS pH 7.4) does the source give for `[Na+].[O-]Cl` [NaOCl] here?
Answer: did not cleave the double bond; also recorded: does not cleave the double bond

Question: Which “^18O incorporation into 2” value ([2]; H2^18O PB) does the source give for `O=O` [^1O2*, singlet oxygen] here?
Answer: no
